# In article PMC3983855, “Identification and enzymatic characterization of acid phosphatase from Burkholderia gladioli” (BMC Research Notes, 2014):
# Test system: membrane-bound acid phosphatase (MBAcP)
# Assay: PNPPase inhibition, residual activity
# Type: biochemical, Burkholderia gladioli
# Settings: 1 mM PNPP, 50 mM acetate pH 6.0, 37°C, membrane fraction
compound,measurement,setting,value
[O]=[V]([OH])([OH])[OH] [vanadate],Residual activity,500 µM,6%
O=P(O)(O)O [phosphate],Residual activity,10000 µM,38%
O=[As](O)(O)O [arsenate],Residual activity,1000 µM,14%
